Results of unrelated studies side by side (data: NIAID ChemDB).

Shared fields: growth or infection tests; agent: Candida albicans; measure: MIC80

A number after MIC or MFC names an inhibition level or a share of isolates. An empty or dashed field is not shown. Neighbouring rows are from separate reports.

smiles,strain,method,result
COc1cc(/C=C/c2ccc(O)cc2)cc(OC)c1,01010,broth dilution,32 µg/mL
O=C(O/N=C(\CCn1ccnc1)c1ccccc1)c1ccccc1Cl,-,agar diffusion,0.7069 µg/mL
C[C@@H](N1CCN(Cc2cn(Cc3ccc(Cl)cc3Cl)c3c(Cl)cccc23)CC1)[C@](O)(Cn1cncn1)c1ccc(F)cc1F,ATCC 36082,resazurin,0.125 µg/mL
CCCCN(Cc1cn(Cc2ccccc2[N+](=O)[O-])nn1)CC(O)(Cn1cncn1)c1ccc(F)cc1F,Y0109,-,4 µg/mL
COc1ccc(/C(CCn2ccnc2)=N/OC(=O)c2ccc(Cl)cc2)cc1,-,agar diffusion,0.3257 µg/mL
COc1ccc(/C=C/C(=O)OC2CCN(CC(O)(Cn3cncn3)c3ccc(F)cc3F)CC2)cc1,Y0109,broth dilution,0.031 µM
C[C@@H](N1CCN(Cc2cn(Cc3ccc(F)cc3F)c3c(Cl)cccc23)CC1)[C@](O)(Cn1cncn1)c1ccc(F)cc1F,ATCC 64548,resazurin,0.125 µg/mL
OC(CN1CCN(c2ccc(OCc3ccncc3)cc2)CC1)(Cn1cncn1)c1ccc(F)cc1F,305271,-,1 µg/mL
NC(=O)N/N=C/c1ccsc1/C=N/NC(N)=O,ATCC 66396,turbidity / absorbance,>250 µg/mL
O=C(/C=C/c1cccc([N+](=O)[O-])c1)OC1CCN(CC(O)(Cn2cncn2)c2ccc(F)cc2F)CC1,Y0109,broth dilution,0.122 µM
Clc1ccc(COC(Cn2ccnc2)c2ccc(Cl)cc2Cl)c(Cl)c1,-,agar diffusion,0.0188 µg/mL
CCCCCCCCCCC(=O)OC1CCN(CC(O)(Cn2cncn2)c2ccc(F)cc2F)CC1,Y0109,broth dilution,0.508 µM
C[C@@H]1[C@H](O)[C@@H](C)/C=C/C=C/C=C/C=C/C=C/C=C/C=C/[C@H](O[C@@H]2O[C@H](C)[C@@H](O)[C@H](N)[C@@H]2O)C[C@@H]2O[C@](O)(C[C@@H](O)C[C@@H](O)[C@H](O)CC[C@@H](O)C[C@@H](O)CC(=O)O[C@H]1C)C[C@H](O)[C@H]2C(=O)O,ATCC 66396,turbidity / absorbance,0.062 µg/mL
CCCC(=O)OC1CCN(CC(O)(Cn2cncn2)c2ccc(F)cc2F)CC1,Y0109,broth dilution,0.153 µM
C[C@@H](N1CCN(Cc2cn(Cc3ccc(F)cc3)c3c(Cl)cccc23)CC1)[C@](O)(Cn1cncn1)c1ccc(F)cc1F,ATCC 64548,resazurin,0.125 µg/mL
Cc1ccc(-c2c3c(N)c4c(nc3nc3c2c(C)nn3-c2ccccc2)CCC4)cc1,CCC 130,broth dilution / absorbance,62.5 µg/mL
C[C@@H](N1CCN(Cc2cn(Cc3ccc(Cl)cc3Cl)c3cc(Cl)ccc23)CC1)[C@](O)(Cn1cncn1)c1ccc(F)cc1F,ATCC 36082,resazurin,0.125 µg/mL
O=C(/C=C/c1ccc([N+](=O)[O-])cc1)OC1CCN(CC(O)(Cn2cncn2)c2ccc(F)cc2F)CC1,Y0109,broth dilution,0.03 µM
Cc1ccc(/C(CCn2ccnc2)=N/OC(=O)c2ccc(Cl)cc2)cc1,-,agar diffusion,0.1699 µg/mL
CCCCN(Cc1cn(Cc2cccc(Br)c2)nn1)CC(O)(Cn1cncn1)c1ccc(F)cc1F,SC5314,-,4 µg/mL
Oc1ccc2cc1Oc1ccc(cc1)CCc1ccc(c(O)c1)-c1c(O)cccc1CC2,YEM30,broth dilution,16 µg/mL
CCCCN(Cc1cn(Cc2cccc(F)c2)nn1)CC(O)(Cn1cncn1)c1ccc(F)cc1F,Y0109,-,4 µg/mL
Cc1ccc(-c2c3c(N)c4c(nc3nc3c2c(C)nn3-c2ccccc2)CCCCC4)cc1,ATCC 10231,broth dilution / absorbance,62.5 µg/mL
C[C@@H](N1CCN(Cc2cn(Cc3ccc(Cl)cc3)c3ccccc23)CC1)[C@](O)(Cn1cncn1)c1ccc(F)cc1F,ATCC 64548,resazurin,0.125 µg/mL
C[C@H]1[C@H](O)[C@@H](C)/C=C/C=C/C=C/C=C/C=C/C=C/C=C/[C@H](O[C@@H]2O[C@H](C)[C@@H](O)[C@H](N)[C@@H]2O)C[C@@H]2O[C@](O)(C[C@@H](O)C[C@@H](O)CC[C@H](O)[C@@H](O)C[C@@H](O)CC(=O)O[C@H]1C)C[C@H](O)[C@H]2C(=O)O,TIMM3315 (azole-resistant),-,0.25 µg/mL
CC(O)Cc1ccc(Cn2cc(CN3CCN([C@H](C)[C@](O)(Cn4cncn4)c4ccc(F)cc4F)CC3)c3ccccc32)cc1,ATCC 36082,resazurin,4 µg/mL
CCCCCCCCC(=O)OC1CCN(CC(O)(Cn2cncn2)c2ccc(F)cc2F)CC1,Y0109,broth dilution,0.034 µM
Cc1ccc(-c2c3c(N)c4c(nc3nc3c2c(C)nn3-c2ccccc2)CCCC4)cc1,ATCC 10231,broth dilution / absorbance,31.2 µg/mL
CCCCN(Cc1cn(Cc2cccc(C#N)c2)nn1)CC(O)(Cn1cncn1)c1ccc(F)cc1F,SC5314,-,4 µg/mL
O=C(/C=C/c1ccccc1F)OC1CCN(CC(O)(Cn2cncn2)c2ccc(F)cc2F)CC1,Y0109,broth dilution,0.032 µM
O=C(O/N=C(\CCn1ccnc1)c1ccccc1)c1ccc(Cl)cc1,-,agar diffusion,0.0054 µg/mL
CCCCN(Cc1cn(Cc2ccc(Br)cc2)nn1)CC(O)(Cn1cncn1)c1ccc(F)cc1F,Y0109,-,1 µg/mL
O=C(O/N=C(\CCn1ccnc1)c1ccccc1)c1cccc(Cl)c1,-,agar diffusion,0.0221 µg/mL
CCCCCCCC(=O)OC1CCN(CC(O)(Cn2cncn2)c2ccc(F)cc2F)CC1,Y0109,broth dilution,0.009 µM

A second listing of 3 rows from above:

{"smiles": "Cc1ccc(-c2c3c(N)c4c(nc3nc3c2c(C)nn3-c2ccccc2)CCCC4)cc1", "strain": "ATCC 10231", "method": "broth dilution / absorbance", "result": "31.2 µg/mL"}
{"smiles": "CCCCN(Cc1cn(Cc2cccc(Br)c2)nn1)CC(O)(Cn1cncn1)c1ccc(F)cc1F", "strain": "SC5314", "result": "4 µg/mL"}
{"smiles": "CC(O)Cc1ccc(Cn2cc(CN3CCN([C@H](C)[C@](O)(Cn4cncn4)c4ccc(F)cc4F)CC3)c3ccccc32)cc1", "strain": "ATCC 36082", "method": "resazurin", "result": "4 µg/mL"}